Measurements reported in PubChem BioAssay AID624099 (ICCB-Longwood, 2012)

Screen: 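Knock-downs relieving repression by E2 of an HPV18 LCR luciferase reporter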 (primary screen)
Cells: human C33A cervical carcinoma cells (HPV-negative) stably expressing BPV1 E2 and an HPV18 LCR luciferase reporter
Reagents: siRNA pool against human genes, 40 nM
Timing: 72 h
Measured: 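HPV18 LCR reporter light per well, converted to plate-wise z-scores that exclude control wells, and averaged over triplicate plates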
Scale: mean z-score and z-score: higher = stronger reporter signal, weaker E2 silencing
Hit rule: 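Hit if mean z-score reaches 2 and two or more of three replicate z-scores also reach 2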
Here is a random part of about 21,000 reagents. Of all reagents, 497 (2.4%) are marked active. 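Higher z means weaker E2 silencing; only reporter increases were scored, and knock-downs that hurt cell survival may mask genuine repressor factors.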 A number with no mark means an inactive call. The numbers tell different reagents against one gene apart. Reagent sequences are not shown.

Gene	reagent	mean z-score	z-score, replicate A	z-score, replicate B	z-score, replicate C
PCDHGA12	1	0.05	-0.01	0.17	0
TCF12	1	-0.57	-0.69	-0.5	-0.53
PHTF1	1	1.48	2.64	0.91	0.88
SCN10A	1	-1.19	-1.39	-0.99	-1.2
TTYH3	1	1.19	1.13	1.1	1.35
SILC1	1	0.08	-0.44	0.93	-0.24
LOC392347 (retired record)	1	-0.1	-0.03	0.02	-0.28
F3	1	0.22	0.16	0.41	0.09
RPL23AP82	1	1.08	1.17	1.03	1.03
FAM41C	1	0.55	0.4	0.55	0.7
BPY2C	1	-0.45	-0.38	-0.2	-0.75
GPRIN1	1	-0.46	-0.51	-0.55	-0.31
RFPL4B	1	-0.84	-1.05	-0.52	-0.95
APOM	1	1.87	1.73	1.69	2.2
LOC388890 (retired record)	1	0.55	0.56	0.51	0.57
MTNR1B	1	0.85	0.71	0.72	1.1
GALNT10	1	1.46	1.3	1.64	1.45
CHST4	1	-0.09	0.17	-0.14	-0.31
TMEM123	1	0.44	0.34	0.64	0.34
LOC401410 (retired record)	1	0.65	0.67	0.75	0.54
LOC401410 (retired record)	2	-0.01	0.18	0.05	-0.25
LBX2-AS1	1	-0.07	-0.2	-0.18	0.17
AP1S2	1	-1.82	-1.49	-2.27	-1.71
SMARCD3	1	-0.58	-0.79	-0.37	-0.58
NPL	1	-0.22	-0.31	-0.45	0.11
ZCWPW2	1	3.46 (active)	2.72	3.55	4.12

Entries above whose target name starts with P or p (2):
Gene	reagent	mean z-score	z-score, replicate A	z-score, replicate B	z-score, replicate C
PCDHGA12	1	0.05	-0.01	0.17	0
PHTF1	1	1.48	2.64	0.91	0.88

Next reagents:
Gene	reagent	mean z-score	z-score, replicate A	z-score, replicate B	z-score, replicate C
ZNF574	1	0.17	0.32	0	0.18
COL8A1	1	0.4	0.42	0.44	0.33
IDH1	1	-0.06	-0.01	0.09	-0.26
GUCD1	1	-1	-1.1	-1.04	-0.87
LOC391322	1	1.52	1.5	1.75	1.31
IRGM	1	-0.14	0.03	-0.33	-0.12
LINC00343	1	-0.95	-0.68	-1.09	-1.07
INPP5F	1	-1.14	-0.73	-1.44	-1.25
CENPBD2P	1	-1.85	-1.65	-1.96	-1.95
KLHDC2	1	-0.21	-0.28	-0.29	-0.06
TMEM105	1	0.09	0.19	0.05	0.02
DEFA5	1	0.34	0.34	0.37	0.31
USP13	1	0.35	0.47	0.34	0.25
